Measured values from several laboratories, pooled; numbers as filed in NIAID ChemDB.

Common to all: whole-cell or culture tests; species: Candida albicans

a–b is a range or a potency band. Lines come from different laboratories, so protocols vary. MIC50, MIC90 and the like: level of inhibition, or share of isolates inhibited. Blank or dashed fields: not listed here.

SMILES | method | strain | changes | endpoint | value
CCCCCCCCSc1ccc(N=C(N)N)cc1 | - | ATCC 44859 | - | MIC80 | 7.81 µM
COC(=O)C1=CC[C@@]23CC[C@@H]([C@@](C)(/C=C/C=C(\C)C(=O)O)OC2=O)[C@@]3(O)CC1 | - | Isolate B311 | - | MFC | 6.25 µg/mL
Clc1ccc(COC(Cn2ccnc2)c2ccc(Cl)cc2Cl)c(Cl)c1 | broth dilution | LM 42V | - | MFC100 | 32 µg/mL
COc1ccc2nc(Sc3ccc(Cl)cc3)c(C3C(C#N)=C(N)Oc4cc(C)oc(=O)c43)cc2c1 | broth dilution | MTCC 227 | - | MIC | 250 µg/mL
CCC(C)CC(C)CCCCCCCCC(=O)NC1CC(O)CNC(=O)C2C(O)CCN2C(=O)C(C(O)CC(N)=O)NC(=O)C(C(O)Cc2ccc(OP(=O)([O-])[O-])cc2)NC(=O)C2CC(O)CN2C(=O)C(C(C)O)NC1=O.[Na+].[Na+] | - | MY1208 | - | MFC | 2 µg/mL
COc1ccc(-c2cc(=O)c3c(O)c(OC)c(OC)cc3o2)cc1OC | - | - | - | MIC | >100 µg/mL
Cc1ccc(Sc2ccc(N=C(N)N)cc2)cc1 | - | ATCC 44859 | - | MIC80 | 250 µM
Oc1ccc2cc1Oc1ccc(cc1)CCc1ccc(O)c(c1)Oc1ccc(cc1)CC2 | broth dilution | BWP17-DPP3-GFP | - | MIC80 | >64 µg/mL
CC1=CC2C(N)=NC(N)=NC2C=C1c1ccc(N)cc1 | broth dilution | ATCC 36082 | - | MIC | 32 µg/mL
N#[N+]c1nc(-c2ccccc2)[nH]c1C(=O)N1CCCC1 | - | ATCC 10231 | - | MIC | 100 µg/mL
CCCCCCCSc1ccc(N=C(N)N)cc1 | - | ATCC 44859 | - | MIC80 | 31.25 µM
N#[N+]c1nc(-c2ccc(F)cc2F)[nH]c1C(=O)N1CCCC1 | - | ATCC 10231 | - | MIC | 200 µg/mL
CC[C@@]1(OC(=O)CN)C(=O)OCc2c1cc1n(c2=O)Cc2cc3cc4c(cc3nc2-1)OCO4 | - | A39 | - | MIC | >1.56 µg/mL
CCC(C)CC(C)CCCCCCCCC(=O)NC1C[C@@H](O)[C@@H](O)NC(=O)[C@@H]2[C@@H](O)CCN2C(=O)[C@H]([C@@H](O)CC(N)=O)NC(=O)[C@H]([C@H](O)[C@@H](O)c2ccc(OP(=O)([O-])O)cc2)NC(=O)[C@@H]2C[C@@H](O)CN2C(=O)[C@H]([C@H](C)O)NC1=O.[Na+] | - | MY1055 | - | MIC | 1 µg/mL
Cc1ccc(-c2nc([N+]#N)c(C(=O)N3CCCC3)[nH]2)cc1 | - | ATCC 10231 | - | MIC | 25 µg/mL
CCC(C)CC(C)CCCCCCCCC(=O)N[C@H]1C[C@@H](O)[C@@H](O)NC(=O)[C@@H]2[C@@H](O)CCN2C(=O)[C@H]([C@H](O)CC(N)=O)NC(=O)[C@H]([C@H](O)[C@@H](O)c2ccc(OC(=O)N(C)CC(=O)O)cc2)NC(=O)[C@@H]2C[C@@H](O)CN2C(=O)[C@H]([C@@H](C)O)NC1=O | - | MY1055 | - | MIC | 4 µg/mL
COc1cc(/C=C/C=O)cc(OC)c1O | - | Clinical isolates | - | MIC90 | 62.5–125 µg/mL
CCCCCCCCCCCCCCCCSc1ccc(N=C(N)N)cc1 | - | ATCC 44859 | - | MIC80 | 125 µM
N#[N+]c1nc(-c2ccccc2F)[nH]c1C(=O)N1CCCC1 | - | ATCC 10231 | - | MIC | >200 µg/mL
C[C@H](CCC1NC1(C)C)[C@H]1CC[C@]2(C)C3CC=C4C(C)(C)C(O)CC[C@]4(C)C3CC[C@]12C | - | ATCC 10231 | - | MIC50 | 1 µg/mL
Oc1cc(Cl)ccc1Oc1ccc(Cl)cc1Cl | broth dilution | - | - | MIC50 | 32 µg/mL
OC(Cn1cncn1)(Cn1cncn1)c1ccc(F)cc1F | broth dilution | YL 331 | - | MIC | 512 µg/mL
COc1ccc2nc(Sc3ccc(Cl)cc3)c(C3C(C#N)=C(N)Oc4c3c(=O)oc3ccc(C)cc43)cc2c1 | broth dilution | MTCC 227 | - | MIC | 500 µg/mL
Oc1cccc(CCc2ccc(Oc3cc(CCc4cccc(O)c4)ccc3O)cc2)c1 | broth dilution | BWP17-DPP3-GFP | - | MIC80 | >64 µg/mL
CCCSc1ccc(N=C(N)N)cc1 | - | ATCC 44859 | - | MIC80 | >1000 µM
CC(C)=CCC/C(C)=C/CC/C(C)=C/CC[C@@]1(C)[C@H](CCCO)/C(=C(/C)C=O)CC[C@]1(C)O | - | SR78 | - | MIC | >50 µg/mL
CC[C@@]1(OC(=O)CN)C(=O)OCc2c1cc1n(c2=O)Cc2cc3c(N)c4c(cc3nc2-1)OCO4 | - | A39 | - | MIC | >100 µg/mL
COc1ccc2c(c1OC)CN1CCc3cc4c(cc3C1=C2)OCO4 | broth dilution | Clinical isolate | Fluconazole-resistant | MIC80 | >64 µg/mL
CCN(CC)c1cc(N(CC)CC)c2ccc(C)nc2c1O | - | - | - | MIC | 10 µg/mL
COc1ccc2nc(Sc3ccccc3)c(C3C(C#N)=C(N)Oc4c3c(=O)oc3ccccc43)cc2c1 | broth dilution | MTCC 227 | - | MIC | 1000 µg/mL
OC(Cn1cncn1)(Cn1cncn1)c1ccc(F)cc1F | - | ATCC 10231 | - | MIC90 | >128 µg/mL
COc1ccc(CCc2cc(OC)c(OC)c(OC)c2)cc1OC | broth dilution | BWP17-DPP3-GFP | - | MIC80 | >64 µg/mL
Cc1ccc2c(N3CCCCC3)cc(N3CCCCC3)c(O)c2n1 | - | - | - | MIC | 7.1 µg/mL
Oc1ccc2c(c1)CCc1ccc(O)c(c1)Oc1ccc(cc1O)CCc1cccc(O)c1O2 | broth dilution | BWP17-DPP3-GFP | - | MIC80 | >64 µg/mL
C=C[C@H]([C@H](O)C(=C)C)C(C)(C)O | - | - | - | MIC | 75 µg/mL
CC1=CC2C(N)=NC(N)=NC2C=C1c1ccc(N(C)C)c(C#N)c1 | broth dilution | ATCC 36082 | - | MIC | >64 µg/mL
Cc1ccc(Sc2nc3ccccc3cc2C2C(C#N)=C(N)Oc3c2c(=O)oc2ccccc32)cc1 | broth dilution | MTCC 227 | - | MIC | 500 µg/mL
Oc1ccc2c(c1)CCc1ccc(cc1)Oc1cc(ccc1O)CCc1ccc-2c(O)c1 | broth dilution | BWP17-DPP3-GFP | - | MIC80 | 16 µg/mL
N#[N+]c1nc(-c2ccc(F)cc2)[nH]c1C(=O)N1CCCC1 | - | ATCC 10231 | - | MIC | 50 µg/mL
CCC(C)CC(C)CCCCCCCCC(=O)N[C@H]1C[C@@H](O)[C@@H](O)NC(=O)[C@@H]2[C@@H](O)CCN2C(=O)[C@H]([C@H](O)CC(N)=O)NC(=O)[C@H]([C@H](O)[C@@H](O)c2ccc(OC(=O)NCCC(=O)O)cc2)NC(=O)[C@@H]2C[C@@H](O)CN2C(=O)[C@H]([C@@H](C)O)NC1=O | - | MY1055 | - | MIC | 4 µg/mL
N#[N+]c1nc(-c2ccccc2Cl)[nH]c1C(=O)N1CCCC1 | - | ATCC 10231 | - | MIC | 50 µg/mL
Oc1ccc2c(c1)CCc1ccc(O)c(c1)Oc1ccc(cc1)CCc1ccc-2c(O)c1 | broth dilution | BWP17-DPP3-GFP | - | MIC80 | >64 µg/mL

Repeating the final 3 entries:

SMILES | method | strain | changes | endpoint | value
CCC(C)CC(C)CCCCCCCCC(=O)N[C@H]1C[C@@H](O)[C@@H](O)NC(=O)[C@@H]2[C@@H](O)CCN2C(=O)[C@H]([C@H](O)CC(N)=O)NC(=O)[C@H]([C@H](O)[C@@H](O)c2ccc(OC(=O)NCCC(=O)O)cc2)NC(=O)[C@@H]2C[C@@H](O)CN2C(=O)[C@H]([C@@H](C)O)NC1=O | - | MY1055 | - | MIC | 4 µg/mL
N#[N+]c1nc(-c2ccccc2Cl)[nH]c1C(=O)N1CCCC1 | - | ATCC 10231 | - | MIC | 50 µg/mL
Oc1ccc2c(c1)CCc1ccc(O)c(c1)Oc1ccc(cc1)CCc1ccc-2c(O)c1 | broth dilution | BWP17-DPP3-GFP | - | MIC80 | >64 µg/mL